Anti-infective test results gathered from many reports (values: NIAID ChemDB through PubChem).

Common to all: tests in culture; species: Plasmodium falciparum; measure: EC50

Rows are shuffled and stem from different studies. ECn: concentration that inhibits the pathogen or its effect by n%.

CCC(C)(C(=O)Nc1cc(C(F)(F)F)ccc1-n1cncn1)c1ccccc1 ; strain: 3D7 ; value: 0.066 µM
CN1CCC(NC2=CCC3=NC=C(c4cnn(-c5ccc(F)cn5)c4)[N+]3=N2)CC1 ; value: 0.602 µM
O=C(Cn1ccnc1[N+](=O)[O-])NCc1ccccc1 ; strain: K1 ; value: 0.125 µM
CCN(CC)CCCC(C)Nc1ccnc2cc(Cl)ccc12 ; strain: K1 ; value: 0.198 µM
COc1ccc2c(c1O)C(=O)c1ccc(C)cc1C2=O ; strain: 3D7 ; value: >37 µM
CCN(CC)CCCC(C)Nc1ccnc2cc(Cl)ccc12 ; strain: NF54 chloroquine-sensitive ; value: 0.02 µM
COc1ccc2[nH]c(-c3ccc(Cc4ccc(OC(F)(F)F)cc4)cc3)c(C)c(=O)c2c1 ; strain: W2 ; value: 0.013 µM
O=C(Nc1cc(C(F)(F)F)ccc1-n1cncn1)C1(c2cccc(C(F)(F)F)c2)CC1 ; strain: Dd2 ; value: 0.002 µM
CCN(CC)CCCC(C)Nc1ccnc2cc(Cl)ccc12 ; cell line: Human erythrocytes ; strain: Congolese chloroquine-sensitive strain ; value: <0.02 µg/mL
CCN(CC)CCCC(C)Nc1ccnc2cc(Cl)ccc12 ; setting: 48 h ; strain: Dd2 ; value: 0.1 µg/mL
COc1ccc(/C=C/C(=O)c2ccc(-n3ccnc3)cc2)c(OC)c1 ; value: 6.7 µg/mL
O=C(NCCN1CCOCC1)c1sc(-c2ccccc2)nc1-c1ccccc1 ; strain: K1 ; value: >10 µg/mL
CCc1nc2nc(C)cc(Nc3cccc(Cl)c3)n2n1 ; strain: 3D7 ; value: 0.79 µM
COc1ccc(OC)c(/C=C/C(=O)c2ccc(-n3nnc4ccccc43)cc2)c1 ; value: 12.73 µg/mL
CNC[C@@H](Cc1ccc2ccccc2c1)NC[C@H](Cc1ccc2ccccc2c1)NCC1(c2ccccc2)CC1 ; strain: 3D7 ; value: 0.02 µg/mL
CCN(CC)CCCC(C)Nc1ccnc2cc(Cl)ccc12 ; cell line: human red blood cells ; strain: K1 ; value: 0.15 µM
O=C(/C=C/c1ccccc1)OCC1OC(OCC(O)C(O)C(O)C(O)CO)CC(O)C1O ; cell line: Erythrocytes ; strain: 3D7 ; value: >25 µM
CCN(CC)CCCC(C)Nc1ccnc2cc(Cl)ccc12 ; strain: K1 ; value: 0.148 µM
OCCNc1nc(NCCNc2ccnc3cc(Cl)ccc23)nc(N2CCOCC2)n1 ; strain: D6 ; value: 0.49 µM
Cc1c(O)cc2c(c1O)C(=O)c1ccccc1C2=O ; strain: 3D7 ; value: >39 µM
CCN(CC)CCCC(C)Nc1ccnc2cc(Cl)ccc12 ; strain: K1 ; value: 0.21 µg/mL
CCN(CC)CCNC(=O)c1sc(-c2ccccc2)nc1-c1ccccc1 ; strain: 3D7 ; value: >19.3 µg/mL
C=CC(C)(C)c1ccc2c3c(c[nH]c13)C[C@@H](CO)NC(=O)[C@H]([C@@H](C)CC)N2 ; strain: Dd2 ; value: 19.67 µM
CCCCCCCCCCCCCCCC#CC(=O)O ; strain: K1 ; value: 21.7 µM
CCc1ccc(Nc2nc(NCCCNc3ccnc4cc(Cl)ccc34)nc(N3CCOCC3)n2)cc1 ; strain: W2 ; value: 0.42 µM
CCN(CC)CCCC(C)Nc1ccnc2cc(Cl)ccc12 ; setting: 10% human serum ; strain: CQ-resistant W2 strain ; value: 0.099 µM
NC1=Nc2ccc(Cl)cc2C1(O)C#Cc1ccccc1 ; strain: 3D7 ; value: 1.16 µM
c1ccc(C2CC3(N4CCCCC4)CC(c4ccccc4)C2N(CCCN2CCCCC2)C3)cc1 ; cell line: human red blood cells ; strain: K1 ; value: 0.12 µM
COc1ccc(C2(O)C(N)=Nc3ccc(F)cc32)cc1 ; strain: Dd2 ; value: 0.359 µM
CCOC(=O)C1=C(O)/C(=C\c2cc(C)n(C3CCN(CCN4CCCCC4)CC3)c2C)N=C1C ; mutations: Chloroquine/pyrimethamine-resistant ; strain: K1 ; value: 2.4 µM
CNC(=O)CCCC(=O)N[C@@H](CC(C)C)C(=O)N[C@@H](CC(C)C)C(=O)NCC(=O)CNC(=O)[C@H](CC(C)C)NC(=O)[C@H](CC(C)C)NC(=O)c1ccc(C(=O)c2ccccc2)cc1 ; value: 1.5 µM
COc1ccc(/C=C/C(=O)c2ccc(-n3cnc4ccccc43)cc2)cc1OC ; value: 5.04 µg/mL
O=C(CCc1ccccc1)c1ccccc1OCC(O)CN1CCN(c2ccccc2)CC1 ; strain: K1 ; value: 0.05 µM
Fc1ccc(Nc2nc(NCCCNc3ccnc4cc(Cl)ccc34)nc(N3CCOCC3)n2)cc1 ; strain: D6 ; value: 0.43 µM
CN(Cc1ccc(N(C)C)cc1)Cc1cccc(CNc2ccnc3cc(Cl)ccc23)c1 ; strain: D10 ; value: >1 µM
COC(=O)CC1(O)C=CC(=O)C=C1 ; strain: K1 ; value: 7.82 µg/mL
CCOC(=O)C1=C(O)/C(=C\c2cc(C)n(C3CCNCC3)c2C)N=C1C ; mutations: Chloroquine/pyrimethamine-resistant ; strain: K1 ; value: 12 µM
COc1ccc(OC)c(/C=C/C(=O)c2ccc(N3CCN(C)CC3)cc2)c1 ; value: 10.1 µg/mL
Fc1ccc(Nc2nc(NCCNc3ccnc4cc(Cl)ccc34)nc(N3CCOCC3)n2)cc1 ; strain: D6 ; value: 0.24 µM
Cc1c(-c2ccc(Cc3ccc(OC(F)(F)F)cc3)cc2)[nH]c2ccc(C(F)(F)F)cc2c1=O ; strain: 3D7 ; value: 0.212 µM
OCCNc1nc(NCCCNc2ccnc3cc(Cl)ccc23)nc(N2CCOCC2)n1 ; strain: D6 ; value: 0.5 µM
CC(=O)O[C@H]1[C@H](OC(=O)CC(C)C)C(C)(C)CC2C3=CCC4[C@@]5(C)CC[C@H](O[C@@H]6O[C@H](C(=O)O)[C@@H](O)[C@H](O[C@@H]7O[C@H](CO)[C@H](O)[C@H](O[C@@H]8OC[C@H](O)[C@H](O)[C@H]8O)[C@H]7O)[C@H]6O[C@@H]6O[C@H](CO)[C@H](O)[C@H](O)[C@H]6O)C(C)(C)C5CC[C@@]4(C)[C@]3(C)C[C@@H](O)[C@]21CO ; strain: GHA ; value: >32 µM
NC1=Nc2ccc(Cl)cc2C1(O)c1cccc2ccccc12 ; strain: 3D7 ; value: 0.03 µM
Cc1ccc(-n2cc(C(=O)O)c(-c3ccccc3)n2)cc1 ; strain: RKL9 ; value: 0.036 µM
COc1cc(/C=C/C(=O)c2ccc(N3CCN(C)CC3)cc2)cc(OC)c1OC ; value: 4.7 µg/mL
O=CN(O)CCCP(=O)(O)O ; cell line: red blood cell ; strain: 3D7 ; value: 0.1814 µM
CCN(CC)CCCC(C)Nc1ccnc2cc(Cl)ccc12 ; strain: NF54 ; value: 0.006 µM
COc1ccc2c(=O)c(C)c(-c3ccc(Cc4ccc(OC(F)(F)F)cc4)cc3)[nH]c2c1 ; strain: 3D7 ; value: 0.381 µM
O=C(/C=C/c1ccccc1)OCC1OC(OC2C=C[C@H]3[C@@H](O2)[C@@H]2O[C@]2(CO)[C@@H]3O)C(O)C(O)C1O ; cell line: Erythrocytes ; strain: 3D7 ; value: >25 µM
CN1CCN(CCCN2CC3(N4CCCCC4)CC(c4ccccc4)C2C(c2ccccc2)C3)CC1 ; cell line: human red blood cells ; strain: K1 ; value: 0.11 µM
COc1ccc(/C=C/C(=O)c2ccc(-n3ccnc3)cc2)cc1OC ; value: 7.34 µg/mL
CCN(CC)CCCC(C)Nc1ccnc2cc(Cl)ccc12 ; strain: K14 ; value: 11 µM
Fc1ccc(Nc2nc(NCCCCNc3ccnc4cc(Cl)ccc34)nc(N3CCOCC3)n2)cc1 ; strain: W2 ; value: 0.11 µM
CN1CCN(CCCN2CC3(N4CCN(C)CC4)CC(c4ccccc4)C2C(c2ccccc2)C3)CC1 ; cell line: human red blood cells ; strain: K1 ; value: 0.25 µM
CC(=O)OC[C@@]12C(CC(C)(C)[C@@H](OC(=O)CC(C)C)[C@@H]1O)C1=CCC3[C@@]4(C)CC[C@H](O[C@@H]5O[C@H](C(=O)O)[C@@H](O)[C@H](O[C@@H]6O[C@H](CO)[C@H](O)[C@H](O[C@@H]7OC[C@H](O)[C@H](O)[C@H]7O)[C@H]6O)[C@H]5O[C@@H]5O[C@H](CO)[C@H](O)[C@H](O)[C@H]5O)C(C)(C)C4CC[C@@]3(C)[C@]1(C)C[C@H]2O ; strain: GHA ; value: >64 µM
C[C@H](NC(=O)[C@H](Cc1ccccc1)C[C@@H](O)[C@H](Cc1ccccc1)NC(=O)OC(C)(C)C)C(=O)N[C@@H]1C(=O)N(C)c2ccccc2-c2ccccc21 ; value: 0.017 µM
O=C(Nc1cc(C(F)(F)F)ccc1-n1cncn1)C1(c2ccccc2)CC1 ; strain: HB3 ; value: 0.164 µM
CCOC(=O)C1=C(O)/C(=C\c2cc(C)n(C3CCN(Cc4ccccn4)CC3)c2C)N=C1C ; mutations: Chloroquine/pyrimethamine-resistant ; strain: K1 ; value: 0.38 µM
Clc1ccc2c(NCCCCNc3nc(Nc4ccccc4)nc(N4CCOCC4)n3)ccnc2c1 ; strain: W2 ; value: 0.25 µM
CN(Cc1ccc(Cl)cc1)Cc1ccc(CNc2ccnc3cc(Cl)ccc23)cc1 ; strain: D10 ; value: >1 µM
O=Cc1cc2c(cc1O)C(=O)c1ccccc1C2=O ; strain: 3D7 ; value: 0.63 µM
COc1ccc(/C=C/C(=O)c2ccc(-n3cncn3)cc2)c(OC)c1 ; value: 3.38 µg/mL
COc1ccccc1C1(O)C(N)=Nc2ccc(Cl)cc21 ; strain: Dd2 ; value: 0.057 µM
COc1ccc(/C=C/C(=O)c2ccc(-n3cnc4ccccc43)cc2)c(OC)c1 ; value: 1.1 µg/mL
O=Cc1cn(-c2ccc(Cl)cc2)nc1-c1ccccc1 ; strain: RKL9 ; value: 0.041 µM
CC(=O)O[C@H]1[C@H](OC(=O)CC(C)C)C(C)(C)CC2C3=CCC4[C@@]5(C)CC[C@H](O[C@@H]6O[C@H](C(=O)O)[C@@H](O)[C@H](O[C@@H]7OC[C@H](O)[C@H](O[C@@H]8OC[C@H](O)[C@H](O)[C@H]8O)[C@H]7O)[C@H]6O[C@@H]6O[C@H](CO)[C@H](O)[C@H](O)[C@H]6O)[C@@](C)(C=O)C5CC[C@@]4(C)[C@]3(C)C[C@@H](O)[C@]21CO ; strain: GHA ; value: >64 µM

Again, the opening 9 rows:

CCC(C)(C(=O)Nc1cc(C(F)(F)F)ccc1-n1cncn1)c1ccccc1 ; strain: 3D7 ; value: 0.066 µM
CN1CCC(NC2=CCC3=NC=C(c4cnn(-c5ccc(F)cn5)c4)[N+]3=N2)CC1 ; value: 0.602 µM
O=C(Cn1ccnc1[N+](=O)[O-])NCc1ccccc1 ; strain: K1 ; value: 0.125 µM
CCN(CC)CCCC(C)Nc1ccnc2cc(Cl)ccc12 ; strain: K1 ; value: 0.198 µM
COc1ccc2c(c1O)C(=O)c1ccc(C)cc1C2=O ; strain: 3D7 ; value: >37 µM
CCN(CC)CCCC(C)Nc1ccnc2cc(Cl)ccc12 ; strain: NF54 chloroquine-sensitive ; value: 0.02 µM
COc1ccc2[nH]c(-c3ccc(Cc4ccc(OC(F)(F)F)cc4)cc3)c(C)c(=O)c2c1 ; strain: W2 ; value: 0.013 µM
O=C(Nc1cc(C(F)(F)F)ccc1-n1cncn1)C1(c2cccc(C(F)(F)F)c2)CC1 ; strain: Dd2 ; value: 0.002 µM
CCN(CC)CCCC(C)Nc1ccnc2cc(Cl)ccc12 ; cell line: Human erythrocytes ; strain: Congolese chloroquine-sensitive strain ; value: <0.02 µg/mL